The record followed here is patent US7390890B2, “Inhibitors of nucleoside metabolism” (Albert Einstein College of Medicine of Yeshiva University, priority 1997, dated 2008).

Amino acid sequences for entries named in this document (tags omitted). Residues count along the entry.
UniProt Q57ZL6, 1-327: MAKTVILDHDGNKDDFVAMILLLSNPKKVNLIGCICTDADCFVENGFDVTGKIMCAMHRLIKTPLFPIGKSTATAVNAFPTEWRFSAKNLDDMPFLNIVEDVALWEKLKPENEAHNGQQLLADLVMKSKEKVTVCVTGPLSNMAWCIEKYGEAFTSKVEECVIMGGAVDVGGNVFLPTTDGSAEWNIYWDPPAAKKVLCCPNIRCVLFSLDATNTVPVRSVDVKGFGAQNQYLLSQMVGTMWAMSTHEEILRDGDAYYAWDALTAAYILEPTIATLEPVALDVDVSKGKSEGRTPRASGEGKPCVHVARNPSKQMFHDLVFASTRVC

pKi: −log10 of the molar value.

The target of the test is nucleoside hydrolase from Trypanosoma brucei brucei (Trypanosoma brucei brucei, UniProt Q57ZL6). The note with it: read-out: Ki Values; nucleoside hydrolase T. brucei brucei; Ia average of multiple determinations, Ib, Ic, Va single determination; tested form: HCl.

As to `Nc1nc2c(C3NC(CO)C(O)C3O)c[nH]c2c(=O)[nH]1` (stereo not shown), the pKi (commonly −log10 of the Ki, conventionally taken in molar units) is 9.05.
